Assay results from patent US10000521B2 (priority 2013, dated 2018).

Each compound was assayed on HCV replicon (assay: IC50 assay with HCV luciferase replicon cell-line). Settings: TC50/IC50.
Assay type: cell-based
Source text: Plating Cells: The cells used in these assays were a liver-derived Huh7 cell line containing an HCV replicon bearing a luciferase reporter gene. The Huh7 cell-line can be obtained from various sources including the Japanese Collection of Research Bioresources (JCRB), Osaka, Japan. The Huh7 cell line containing an HCV replicon bearing a luciferase reporter gene can be prepared essentially as described by Vrolijk J M, et al. (J Virol Methods. (2003) 110(2):201-9). Cells were passaged when they reached about 70% confluency.
These 0.5 mM dilutions were then used to further serially dilute the compounds in DMEM+2% FBS+0.5% DMSO to keep the concentration of DMSO in each condition identical.
The Glo Lysis Buffer and the Bright Glow reagent was allowed to warm to room temperature for about 30 min in the dark. […] The media was removed from cells, and the cells were gently washed with about 100 μL of phosphate buffered saline (PBS). […] The plates were gently rocked for about 15 min at room temperature in the dark to ensue complete cell lysis, then about 50 μL of the Bright Glo reagent was added to each well of the 96-well plate, and the reagent was mixed well with the cell lysate. It should be noted that luciferin has a half-life of approximately 30 min at room temperature after it is added to the plate. […] The data was saved and used to calculate the percent inhibition of luciferase activity at each drug concentration. […] Curve equation: (m1−m2)/(1+(x/m3)^m4); m1=100; m2=0.01; m3=0.01; m4=0.01; the equation is: […]

Question: For O=C(Nc1ccn([C@@H]2O[C@H](CO)C(O)C2(F)F)c(=O)n1)c1c(Br)ccc2c1OCO2 (stereo partly drawn) [Compound 6], which “Therapeutic Index” value is on record?
Answer: The value was 6512.

Question: Which “Therapeutic Index” value does the source give for O=C(Nc1ccn([C@@H]2O[C@H](CO)C(O)C2(F)F)c(=O)n1)c1ccc2c(c1)OC(F)(F)O2 (stereo partly drawn) [Compound 7] here?
Answer: The value was 4051.

Question: For CC1(C)Cc2ccc(C(=O)Nc3ccn([C@@H]4O[C@H](CO)C(O)C4(F)F)c(=O)n3)cc2O1 (stereo partly drawn) [Compound 4], which “Therapeutic Index” value is on record?
Answer: The value was 6565.

Question: For O=C(Nc1ccn([C@@H]2O[C@H](CO)C(O)C2(F)F)c(=O)n1)c1ccc2c(c1)OCCCO2 (stereo partly drawn) [Compound 3], which “Therapeutic Index” value is on record?
Answer: Its value is 9628.

Question: With O=C(Nc1ccn(C2O[C@H](CO)[C@@H](O)C2(F)F)c(=O)n1)c1ccc2c(c1)OCO2 (stereo partly drawn) [Compound 1, N-(1-((4R,5R)-3,3-difluoro-4-hydroxy-5-(hydroxymethyl)tetrahydrofuran-2-yl)-2-oxo-1,2-dihydropyrimidin-4-yl)benzo[d][1,3]dioxole-5-carboxamide] as the compound, how does the “Therapeutic Index” value read?
Answer: The value was 7910.

Question: How did the “Therapeutic Index” value turn out when Cc1cc2c(cc1C(=O)Nc1ccn([C@@H]3O[C@H](CO)C(O)C3(F)F)c(=O)n1)OCCO2 (stereo partly drawn) [Compound 8] was run?
Answer: The value was 370.

Question: Which “Therapeutic Index” value does the source give for O=C(Nc1ccn([C@@H]2O[C@H](CO)C(O)C2(F)F)c(=O)n1)c1ccc2c(c1)CCO2 (stereo partly drawn) [Compound 5] here?
Answer: Its value is 6579.

Question: How did the “Therapeutic Index” value turn out when O=C(Nc1ccn(C2O[C@H](CO)[C@@H](O)C2(F)F)c(=O)n1)c1cc2c(cc1[N+](=O)[O-])OCO2 (stereo in doubt) [Compound 9] was run?
Answer: The value was >10,700.

Question: Which “Therapeutic Index” value does the source give for O=C(Nc1ccn(C2O[C@H](CO)[C@@H](O)C2(F)F)c(=O)n1)c1ccc2c(c1)OCCO2 (stereo partly drawn) [Compound 2, N-(1-((4R,5R)-3,3-difluoro-4-hydroxy-5-(hydroxymethyl)tetrahydrofuran-2-yl)-2-oxo-1,2-dihydropyrimidin-4-yl)-2,3-dihydrobenzo[b][1,4]dioxine-6-carboxamide] here?
Answer: The value was 6790.
